PubChem BioAssay AID1224833, University of Georgia | 2016
Test: 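Human genes whose knock-down alters rotavirus replication in monkey cells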 (primary screen). Cell system: monkey MA104 kidney cells. Knock-down reagent: siRNA pool against human genes, 50 nM. Duration: 48 h knock-down before infection; read 24 h after infection. Challenge: infection with rotavirus strain RV3 two days after transfection; infectious dose for this stage not given. Read-out: 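z-score of rotavirus antigen signal per well, from a fluorescent immunoassay, relative to non-targeting control wells on the same plate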. Scale: z-score vs non-targeting control: higher = more rotavirus replication than with non-targeting control. Active means: In these data the active calls have z-score vs non-targeting control at about -1 or lower, or at about 1 or higher. Calls: active = z-score beyond 1 either way; inactive = z-score within 1 of zero.
Here is a random part of about 12,000 reagents. In the full data, about 5,600 (46%) are marked active. 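Active calls cover z-scores past 1 in both directions, so they include lowered as well as raised rotavirus replication.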 Unmarked entries are inactive.

| target gene | z-score vs non-targeting control |
| --- | --- |
| CENPBD1P | 1.26 (active) |
| NID2 | -1.85 (active) |
| ENDOV | 1.93 (active) |
| LGI1 | -2.29 (active) |
| SEMA5A | 0.568 |
| KIFBP | -0.725 |
| OR7A17 | -1.21 (active) |
| C5AR2 | 2.37 (active) |
| MRPS22 | -1.8 (active) |
| EIF3G | -0.708 |
| ATP5F1B | 1.34 (active) |
| CD200R1 | -0.653 |
| CDHR5 | -0.859 |
| SPATA12 | 2.1 (active) |
| SNUPN | 3.99 (active) |
| C17orf75 | -1.48 (active) |
| TMEM150A | -0.97 |
| TGIF2 | 1.19 (active) |
| PCNX1 | 0.275 |
| LGI2 | 0.749 |
| NR4A3 | -1.16 (active) |
| GATA6 | 0.545 |
| CERS1 | -0.444 |
| UBA52 | 0.918 |
| EPB41L4A | -0.244 |
| USP24 | 1.85 (active) |
| NUDC | -0.954 |
| PRB3 | 0.774 |
| SYCP2L | 1.3 (active) |
| OR52K1 | -0.642 |
| OR10T2 | -0.59 |
| ZNF142 | 0.998 |
| PEX26 | -0.414 |
| P2RY13 | -0.797 |
| MLF2 | 0.268 |
| MFGE8 | -0.73 |
| GTF2H5 | -0.184 |
| BLOC1S4 | -1.91 (active) |
| CPAP | 1.22 (active) |
| NRSN2 | 1.12 (active) |
| MAT2B | -2.02 (active) |
| RPL13A | 0.799 |
| PLA2G4B | -0.225 |
| OPTC | 0.265 |
| OR1N1 | 0.867 |
| PLEKHA8 | 2.24 (active) |
| LLGL2 | 1.31 (active) |
| TAGLN | -0.78 |
| ZNF627 | -0.205 |
| RAB14 | -1.67 (active) |
| MACF1 | -2.07 (active) |
| CCDC14 | -1.5 (active) |
| CEP85L | 1.17 (active) |
| FRMD3 | 0.437 |
| ATF5 | -1.27 (active) |
| ZNF615 | -1.1 (active) |
| DNASE2 | -1.01 (active) |
| ZDHHC8 | 0.232 |
| ZNF512 | -1.6 (active) |
| COPB1 | 0.0947 |
| TNFSF4 | -1.64 (active) |
| FCGR2A | -0.944 |
| CALN1 | -0.181 |
| ROGDI | -0.377 |
| SCAPER | 0.214 |
| RAD17 | -1.04 (active) |
| EHHADH | -1.7 (active) |
| ZC3H11D | -1.67 (active) |
| RHBDD2 | 0.279 |
| CENPM | 1.16 (active) |
| IL36R | 1.56 (active) |
| GALNT11 | -0.962 |
| HEYL | -0.629 |
| FOXC1 | -0.635 |
| ADAT1 | 0.65 |
| TCOF1 | -1.53 (active) |
| PTGDS | -3.02 (active) |
| ARPC5 | 0.0329 |
| LYSMD1 | -0.0828 |
| RPH3AL | -0.674 |
| DAP | -0.86 |
| LDB2 | -2.19 (active) |
| PAPOLG | 1.32 (active) |
| DENND2C | 0.738 |
| KIR3DL2 | 0.505 |
| OR5A2 | 0.315 |
| WWC2 | 0.727 |
| CASP7 | 1.52 (active) |
| GRAMD2B | 1.22 (active) |
| CNOT6L | -2.82 (active) |
| H3C11 | 0.143 |
| TIMP4 | -0.937 |
| MRPS31 | -0.506 |
| CHPT1 | 1.1 (active) |
| OR5D14 | -1.69 (active) |
| CENPC | -2.09 (active) |
| TMEFF1 | 0.0439 |
| GPAT2 | -1.82 (active) |
| RELL2 | 0.0818 |
| TBC1D3G | 1.34 (active) |
| TXNDC17 | -0.521 |
| SLC39A14 | -0.277 |
| CST6 | -0.865 |
| PCDH10 | 0.0187 |
| ARC | -1.33 (active) |
| IL16 | 0.763 |
| MICAL1 | -0.157 |
| KRTAP13-1 | 0.413 |
| CDSN | -2.11 (active) |
| ZBTB1 | -0.54 |

Records listed so far whose gene name starts with I or i (2):
| target gene | z-score vs non-targeting control |
| --- | --- |
| IL36R | 1.56 (active) |
| IL16 | 0.763 |
